System: coronal proteins on NPs
Design: species or system mouse
Conditions: for V5 Sera_Nanoparticles Quantitative Value (Normalized Total Spectra): HBPE-NPs incubated 1 h with IAV day 5 (V5) mouse sera, 20:1 NP:sera, centrifuged and washed; for V5 Sera Alone (Control) Quantitative Value (Normalized Total Spectra): IAV day 5 (V5) mouse sera alone, no NPs (sera-only control)

B1: Carboxypeptidase N subunit 2 (protein, UniProt Q9DBB9 22-547, looked up)
Carboxypeptidase N subunit 2: CPVGCDCFGREVFCSDEQLADIPPDIPPHITDIVFVETAFTTVRTRAFSGSPNLTKVVFLNTQVRHLEPDAFGGLPRLQDLEITGSPVSNLSAHIFSNLSSLEKLTLDFDRLAGLPEDLFCHMDILESLQLQGNQLRTLPGRLFQSLRDLRTLNLAQNLLTQLPKGAFQSLTGLQMLKLSNNMLARLPEGALGSLSSLQELFLDGNAITELSPHLFSQLFSLEMLWLQHNAICHLPVSLFSSLHNLTFLSLKDNALRTLPEGLFAHNQGLLHLSLSYNQLETIPEGAFTNLSRLVSLTLSHNAITDLPEHVFRNLEQLVKLSLDSNNLTALHPALFHNLSRLQLLNLSRNQLTTLPGGIFDTNYDLFNLALLGNPWQCDCHLSYLTSWLRLYNNQISNTHTFCAGPAYLKGQLVPNLKQEQLICPVNPGHLSFRALGLDEGEPAGSWDLTVEGRAAHSQCAYSNPEGTVLLACEESRCRWLNIQLSSRDGSDSAAMVYNSSQEWGLRSSCGLLRVTVSIEAPAAGP
- V5 Sera_Nanoparticles Quantitative Value (Normalized Total Spectra): 6.5275
- V5 Sera Alone (Control) Quantitative Value (Normalized Total Spectra): 7.4018

B2: Ceruloplasmin (protein, UniProt Q61147 20-1061, looked up)
Ceruloplasmin: RDKHYFIGITEAVWDYASGTEEKKLISVDTEQSNFYLQNGPDRIGRKYKKALYFEYTDGTFSKTIDKPAWLGFLGPVIKAEVEDKVYVHLKNLASRIYTFHAHGVTYTKEYEGAVYPDNTTDFQRADDKVLPGQQYVYVLHANEPSPGEGDSNCVTRIYHSHVDAPKDIASGLIGPLILCKKGSLYKEKEKNIDQEFVLMFSVVDENLSWYLEDNIKTFCSEPEKVDKDNEDFQESNRMYSINGYTFGSLPGLSMCAADRVKWYLFGMGNEVDVHSAFFHGQALTSRNYQTDIINLFPATLIDAYMVAQNPGVWMLSCQNLNHLKAGLQAFFQVRDCNKPSPEDNIQDRHVRHYYIAAEEVIWNYAPSGTDIFTGENLTALESDSRVFFEQGATRIGGSYKKMAYREYTDGSFTNRKQRGPDEEHLGILGPVIWAEVGDTIKVTFHNKGQHPLSIQPMGVSFTAENEGTYYGPPGRSSQQAASHVAPKETFTYEWTVPKEMGPTYADPVCLSKMYYSGVDPTKDIFTGLIGPMKICKKGSLLADGRQKDVDKEFYLFPTVFDENESLLLDDNIRMFTTAPDQVDKEDEDFQESNKMHSMNGFMYGNQPGLNMCLGESIVWYLFSAGNEADVHGIYFSGNTYLSKGERRDTANLFPHKSLTLLMNPDTKGTFDVECLTTDHYTGGMKQKYTVNQCQRQFEDFTVYLGERTYYVAAVEVEWDYSPSRAWEKELHHLQEQNVSNVFLDKEEFFIGSKYKKVVYRQFTDSSFREQVKRRAEDEHLGILGPPIHANVGDKVKVVFKNMATRPYSIHAHGVKTESSTVVPTLPGEVRTYTWQIPERSGAGREDSACIPWAYYSTVDRVKDLYSGLIGPLIVCRKSYVKVFSPKKKMEFFLLFLVFDENESWYLDDNIKTYSEHPEKVNKDNEEFLESNKMHAINGKMFGNLQGLTMHVKDEVNWYVMGMGNEIDLHTVHFHGHSFQYKHRGVYSSDVFDLFPGTYQTLEMFPQTPGTWLLHCHVTDHVHAGMATTYTVLPVEQETKSG
- V5 Sera_Nanoparticles Quantitative Value (Normalized Total Spectra): 87.034
- V5 Sera Alone (Control) Quantitative Value (Normalized Total Spectra): 45.336

B3: Complement component C8 beta chain (protein, UniProt Q8BH35 54-589, looked up)
Complement component C8 beta …: SVAEAPAPIDCELSTWSSWTACDPCQKKRYRHTYLLRPSQFYGELCDLSDKEVEDCVTNQPCRSQVRCEGFVCAQTGRCVNRRLLCNGDNDCGDQSDEANCRRIYKNCQREMEQYWAIDRLASGINLFTNTFEGPVLDHRYYAGGCSPHYILDTNFRKPYNVESYTPQTKCEYEFTLTEYESYSDFERLVIEKKTHMFNFTSGFKVDGVMDLGIKVESNEGKNYVTRTKRFAHTQSKFLHARSVLEVAHYKLKSRSLMLHYEFLQRVKSLPLEYSYGEYRDLLRDFGTHFITEAVLGGIYEYTLIMNKDAMEQGDYTLSHVTACAGGSFGIGGMVYKVYVKVGVSAKKCSDIMKEINERNKRSTMVEDLVVLVRGGTSEDITALAYKELPTPELMEAWGDAVKYNPAIIKIKAEPLYELVTATDFAYSSTVKQNLKKALEEFQSEVSSCRCAPCRGNGVPVLKGSRCECICPGGFQGTACEVTYRKDIPIDGKWSCWSDWSACSGGHKTRHRQCNNPAPHKGGSPCSGPASETLNC
- V5 Sera_Nanoparticles Quantitative Value (Normalized Total Spectra): 5.4396
- V5 Sera Alone (Control) Quantitative Value (Normalized Total Spectra): 4.6261

B4: Keratin, type II cytoskeletal 5 (protein, UniProt Q922U2 1-580, looked up)
Keratin, type II cytoskeletal …: MSRQSSVSFRSGGSRSFSAASAITPSVSRTSFSSVSRSGGGGGGRISLGGACGAGGYGSRSLYNVGGSKRISYSSGGGSFRNQFGAGGFGFGGGAGSGFGFGGGAGSGFGFGGGAGFGGGYGGAGFPVCPPGGIQEVTVNQNLLTPLNLQIDPTIQRVRTEEREQIKTLNNKFASFIDKVRFLEQQNKVLDTKWALLQEQGTKTIKQNLDPLFEQYINNLRRQLDGVLGERGRLDSELRNMQDLVEDYKNKYEDEINKRTTAENEFVMLKKDVDAAYMNKVELEARVDALMDEINFMKMFFDAELSQMQTHVSDTSVVLSMDNNRSLDLDSIIAEVKAQYEDIANRSRTEAESWYQTKYEELQQTAGRHGDDLRNTKHEISEMNRMIQRLRSEIDNVKKQCANLQNAIAEAEQRGELALKDARNKLTELEEALQKAKQDMARLLREYQELMNTKLALDVEIATYRKLLEGEECRLSGEGVGPVNISVVTNSVSSGYGGGSSIGVGSGFGGGLGSGFAGGLGPRFTRGGGGLGLGSGLSVGGSGFSAGSSQGGMSFGSGGGSGSSVKFVSTTSSSRRSFKS
- V5 Sera_Nanoparticles Quantitative Value (Normalized Total Spectra): 5.4396
- V5 Sera Alone (Control) Quantitative Value (Normalized Total Spectra): 10.178

B5: Coagulation factor X (protein, UniProt O88947 41-481, looked up)
Coagulation factor X: ANSFFEEFKKGNLERECMEEICSYEEVREIFEDDEKTKEYWTKYKDGDQCESSPCQNQGACRDGIGGYTCTCSEGFEGKNCELFVRKLCRLDNGDCDQFCREEQNSVVCSCASGYFLGNDGKSCISTAPFPCGKITTGRRKRSVALNTSDSELDLEDALLDEDFLSPTENPIELLNLNETQPERSSDDLVRIVGGRECKDGECPWQALLINEDNEGFCGGTILNEFYILTAAHCLHQARRFKVRVGDRNTEKEEGNEMVHEVDVVIKHNKFQRDTYDYDIAVLRLKTPITFRMNVAPACLPQKDWAESTLMTQKTGIVSGFGRTHEKGRQSNILKMLEVPYVDRNTCKLSTSFSITQNMFCAGYEAKLEDACQGDSGGPHVTRFKNTYYVTGIVSWGEGCARKGKYGIYTKVTTFLKWIDRSMKARVGPTAETPRTAGPPN
- V5 Sera_Nanoparticles Quantitative Value (Normalized Total Spectra): 6.5275
- V5 Sera Alone (Control) Quantitative Value (Normalized Total Spectra): 4.6261

B6: Carbonic anhydrase 1 (protein, UniProt P13634 2-261, looked up)
Carbonic anhydrase 1: ASADWGYGSENGPDQWSKLYPIANGNNQSPIDIKTSEANHDSSLKPLSISYNPATAKEIVNVGHSFHVIFDDSSNQSVLKGGPLADSYRLTQFHFHWGNSNDHGSEHTVDGTRYSGELHLVHWNSAKYSSASEAISKADGLAILGVLMKVGPANPSLQKVLDALNSVKTKGKRAPFTNFDPSSLLPSSLDYWTYFGSLTHPPLHESVTWVICKDSISLSPEQLAQLRGLLSSAEGEPAVPVLSNHRPPQPLKGRTVRASF
- V5 Sera_Nanoparticles Quantitative Value (Normalized Total Spectra): 6.5275
- V5 Sera Alone (Control) Quantitative Value (Normalized Total Spectra): 0

B7: Apolipoprotein D (protein, UniProt P51910 21-189, looked up)
Apolipoprotein D: QNFHLGKCPSPPVQENFDVKKYLGRWYEIEKIPASFEKGNCIQANYSLMENGNIEVLNKELSPDGTMNQVKGEAKQSNVSEPAKLEVQFFPLMPPAPYWILATDYENYALVYSCTTFFWLFHVDFVWILGRNPYLPPETITYLKDILTSNGIDIEKMTTTDQANCPDFL
- V5 Sera_Nanoparticles Quantitative Value (Normalized Total Spectra): 5.4396
- V5 Sera Alone (Control) Quantitative Value (Normalized Total Spectra): 15.729

B8: Alpha-1-acid glycoprotein 1 (protein, UniProt Q60590 19-207, looked up)
Alpha-1-acid glycoprotein 1: QNPEHANFTIGEPITNETLSWLSDKWFFMGAAFRKLEYRQAIQTMQSEFFYLTTNLINDTIELRESQTIGDQCVYNSTHLGFQRENGTFSKYEGGVETFAHLIVLRKHGAFMLAFDLKDEKKRGLSLYAKRPDITPELREVFQKAVTHVGMDESEIIFVDWKKDRCGQQEKKQLELGKETKKDPEEGQA
- V5 Sera_Nanoparticles Quantitative Value (Normalized Total Spectra): 5.4396
- V5 Sera Alone (Control) Quantitative Value (Normalized Total Spectra): 3.7009

B9: Alpha-1-antitrypsin 1-5 (protein, UniProt Q00898 25-413, looked up)
Alpha-1-antitrypsin 1-5: EDVQETDTSQKDQSPASHEIATNLGDFAISLYRELVHQSNTSNIFFSPVSIATAFAMLSLGSKGDTHTQILEGLQFNLTQTSEADIHNSFQHLLQTLNRPDSELQLSTGNGLFVNNDLKLVEKFLEEAKNHYQAEVFSVNFAESEEAKKVINDFVEKGTQGKIVEAVKKLEQDTVFVLANYILFKGKWKKPFDPENTKQAEFHVDESTTVKVPMMTLSGMLDVHHCSTLSSWVLLMDYAGNATAVFLLPDDGKMQHLEQTLNKELISKFLLNRRRRLAQIHIPRLSISGNYNLETLMSPLGITRIFNSGADLSGITEENAPLKLSQAVHKAVLTIDETGTEAAAATVLQGGFLSMPPILHFNRPFLFIIFEEHSQSPLFVGKVVDPTHK
- V5 Sera_Nanoparticles Quantitative Value (Normalized Total Spectra): 6.5275
- V5 Sera Alone (Control) Quantitative Value (Normalized Total Spectra): 21.28

B10: Serum amyloid A-1 protein (protein, UniProt P05366 20-122, looked up)
Serum amyloid A-1 protein: GFFSFVHEAFQGAGDMWRAYTDMKEANWKNSDKYFHARGNYDAAQRGPGGVWAAEKISDGREAFQEFFGRGHEDTIADQEANRHGRSGKDPNYYRPPGLPDKY
- V5 Sera_Nanoparticles Quantitative Value (Normalized Total Spectra): 7.6154
- V5 Sera Alone (Control) Quantitative Value (Normalized Total Spectra): 24.056

B11: Apolipoprotein C-IV (protein, UniProt P34928 27-88, looked up)
Apolipoprotein C-I: APDLSGTLESIPDKLKEFGNTLEDKARAAIEHIKQKEILTKTRAWFSEAFGKVKEKLKTTFS
- V5 Sera_Nanoparticles Quantitative Value (Normalized Total Spectra): 5.4396
- V5 Sera Alone (Control) Quantitative Value (Normalized Total Spectra): 12.028
